Publication PMC8315922, “In Vitro Identification and In Vivo Confirmation of Inhibitors for Sweet Potato Chlorotic Stunt Virus RNA Silencing Suppressor, a Viral RNase III” (Journal of Virology, 2021)

Amino acid sequences for entries named in this document (tags omitted). Residues count along the entry.
UniProt Q8JJW8, 1-228: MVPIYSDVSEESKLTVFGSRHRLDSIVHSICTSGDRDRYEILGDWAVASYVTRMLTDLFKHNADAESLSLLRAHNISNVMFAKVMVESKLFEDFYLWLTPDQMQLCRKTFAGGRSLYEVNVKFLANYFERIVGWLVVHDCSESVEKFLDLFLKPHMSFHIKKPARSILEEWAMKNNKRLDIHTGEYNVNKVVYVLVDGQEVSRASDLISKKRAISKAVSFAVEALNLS

How the values were obtained:
sweetpotato plants = test: Toxicity and plant growth (height) of coinfected sweetpotato plants grown in culture medium; details: 50 μM in culture medium
[1] = biological target: T1, CSR3 (RNase III of SPCSV) (Sweet potato chlorotic stunt virus, UniProt Q8JJW8); test: Kinetic-based FRET dose-response assay (IC50, DSS); type: biochemical; details: for DSS FIMM 2: repeat FIMM 2; for IC50: 1.25 nM to 50 μM, unit inferred, numbers match nM
[2] = biological target: T1, CSR3 (RNase III of SPCSV); test: Kinetic-based HTS (FRET, labeled 22-bp siRNA cleavage), one concentration; type: biochemical; details: compound 10 μM, 375 nM siRNA, 37°C
Source text: Based on the catalytic activity of CSR3 on 22-bp siRNA, our kinetic-based HTS assay was designed using distance-dependent FRET technology. Specifically, one strand of siRNA, as a substrate, was labeled with a fluorescent dye (6-carboxyfluorescein [FAM]) at the 5′ end and a quencher (black hole quencher 1 [BHQ1]) at the 3′ end. The initial reaction rate of CSR3 was quantified using the slope of raw fluorescence under an excitation/emission spectrum at 485/520 nm (Fig. 3A). According to our previous study ([24]) detailing CSR3 kinetic-based HTS development and optimization, this assay was conducted using 100 nM CSR3 enzyme and 375 nM siRNA substrate over 12 plate read cycles (∼17 min total) at 37°C. […] To evaluate the quality of the HTS assay, the Z-factor (Z′) parameter was calculated using the reaction rates of the positive and negative controls ([30]). […]
The HTS assay was designed based on FRET using a 22-bp siRNA (forward sequence, […]; reverse sequence, […]) with a 2-nucleotide (nt) 3′ overhang labeled with the fluorescent dye 6-carboxyfluorescein (FAM) and a black hole quencher (BHQ1) on the sense strand (Metabion, Munich, Germany). […] The plates were read with a PHERAstar FS reader (BMG Labtech, Ortenberg, Germany).
For HTS, the activity of CSR3 was calculated by measuring the change in fluorescence as a function of the reaction time using MARS Data Analysis software (BMG Labtech). […]

CSR3 = CSR3 (Sweet potato chlorotic stunt virus, UniProt Q8JJW8); test: Binding affinity assay using MST; details: Table S4
SPFMV = test: Virus accumulation (RT-qPCR of coat protein RNA) in coinfected sweetpotato plants grown in culture medium: SPFMV; type: in vivo, Sweet potato feathery mottle virus; details: 50 μM in culture medium, 28 days, relative to DMSO control
SPCSV = test: Virus accumulation (RT-qPCR of coat protein RNA) in coinfected sweetpotato plants grown in culture medium: SPCSV; type: in vivo, Sweet potato chlorotic stunt virus; details: 50 μM in culture medium, 28 days, relative to DMSO control
[3] = read-out: IC50 FIMM 2, repeat FIMM 2 (FIMM library compounds)

Compound | Toxicity (sweetpotato plants) | DSS FIMM 2 ([1]; drug sensitivity score) | IC50 [1, 3] [nM] | PI values (percentage of inhibition) [2] [%] | DSS Comm 1 ([1]; drug sensitivity score, repeat Comm 1) | IC50 ([1]; read-out: IC50 Comm 1, repeat Comm 1 (commercial compounds)) [nM] | Kd (CSR3; MST binding affinity to CSR3) [µM] | Binding (Yes/No) (CSR3; MST binding call) | Response Amplitude (CSR3; MST response amplitude) | SPFMV_FC (fold change of viral accumulation) (SPFMV) | SPCSV_FC (fold change of viral accumulation) (SPCSV)
COc1cc(C=C2C(=O)NC(=S)NC2=O)ccc1OCc1ccccc1[N+](=O)[O-] [FIMM101864] | no | – | – | – | – | – | – | – | – | – | –
c1cnc2[nH]c(Nc3ccc(Nc4nc5cccnc5[nH]4)cc3)nc2c1 | – | 13.2 | 2420 | – | – | – | – | – | – | – | –
CCn1c(C)nc2cc(S(N)(=O)=O)ccc21 | – | 15.2 | 1740 | 99.1094 | 6 | 4610 | 1.62 | Yes | 23 | 1.416 | 1.751

Read-outs that look alike come from different tables or passages of the source.
